The target in this data set is T1, PmrA (G211)-P (Salmonella enterica serovar Typhimurium) (UniProt P36556).
T1 sequence (looked up): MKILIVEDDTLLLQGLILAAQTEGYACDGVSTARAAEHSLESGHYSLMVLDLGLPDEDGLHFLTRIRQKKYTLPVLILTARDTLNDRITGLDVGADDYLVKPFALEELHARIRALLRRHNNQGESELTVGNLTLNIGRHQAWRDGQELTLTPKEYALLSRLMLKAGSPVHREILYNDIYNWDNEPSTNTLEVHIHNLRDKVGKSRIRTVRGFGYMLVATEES
In words: EMSA. The conditions noted are these: phosphorylated PmrA, 0-300 pmol in 30 ul, 2 mM MgCl2, poly(dI-dC); recombinant protein; residues 1-222; protein details: C-terminal His6; label: 32P 5' end (T4 PNK), unlabeled as cold competitor; probe letters rebuilt from the primers and the genome.

Protein sequences can lack the tags named with them.

This is an account of results in paper PMC3531487, “An Allele of an Ancestral Transcription Factor Dependent on a Horizontally Acquired Gene Product” (PLoS Genetics, 2012).

Regarding “TCGCCGGACGGGAGAAAGGCAAAAAGTCCGACATCATTTTTCCTTCAGCCATTGAAAGCCGCTTTTCAAATATTTCGGCAATAGAAAAGGGCTTATTTTTTAACGCATTTAGCTGAACCCTACTGGATGAAGATTAAATTAACATTAAGAAATTAAGGTGAAGTAAAAAGATAATTTTTAACGGAATTATGCTTTGCTTTCGCCGAAAGTTTAAGGCATTTTATGCATGCCCAAAAGCTGTTTTTATGTTTCTGGCCTGGTCTTCCGTTGCGGAATTTCATTTTAATTGTATTGCTATTAAGTTAGCTGCACTGTCTGCCTGAGAGGTTAATG (double strand) [pbgP promoter fragment]”, the binding result was “binds”.
